Test results: patent US20050215634A1 (priority 2003, published 2005)

Test system: human T cells
Type: cell-based
Settings: T cells plus GML 15 μg/ml, no TSST-1

CCCCCCCCCCCC(=O)OCC(O)CO (stereo not shown) [GML, glycerol monolaurate]
Counts/min (incorporation of 3H-thymidine into DNA): 5,000 Counts/min
